Assay results as given in US6407221 (CELL GENESYS, dated 2002).

The binders below were run against T1, CD8/zeta chimera (human) (assay: immunoprecipitation from surface-iodinated digitonin lysates; TCR down modulation with C305).
T1 construct: range […];range […]; CD8/? chimeric receptor

Binder	binding result
CD3 gamma (receptor, human, UniProt P09693 23-182, looked up, whole, on cells; also called CD3 γ) QSIKGNHLVKVYDYQEDGSVLLTCDAEAKNITWFKDGKMIGFLTEDKKKWNLGSNAKDPRGMYQCKGSQNKSKPLQVYYRMCQNCIELNAATISGFLFAEIVSIFVLAVGVYFIAGQDGVRQSRASDKQTLLPNDQLYQPLKDREDDQYSHLQGNQLRRN	no binding
CD3 delta (receptor, human, UniProt P04234 22-171, looked up, whole, on cells; also called CD3 δ) FKIPIEELEDRVFVNCNTSITWVEGTVGTLLSDITRLDLGKRILDPRGIYRCNGTDIYKDKESTVQVHYRMCQSCVELDPATVAGIIVTDVIATLLLALGVFCFAGHETGRLSGAADTQALLRNDQVYQPLRDRDDAQYSHLGGNWARNK	no binding
CD3 epsilon (receptor, human, UniProt P07766 23-207, looked up, whole, on cells; also called CD3 ε; CD3 ε subunit of the TCR) DGNEEMGGITQTPYKVSISGTTVILTCPQYPGSEILWQHNDKNIGGDEDDKNIGSDEDHLSLKEFSELEQSGYYVCYPRGSKPEDANFYLYLRARVCENCMEMDVMSVATIVIVDICITGGLLLLVYYWSKNRKAKAKPVTRGAGAGGRQRGQNKERPPPVPNPDYEPIRKGQRDLYSGLNQRRI	no binding
